The exact form of at least one protein or probe is not confirmed. At least one verdict rests on a figure or table, not on a statement of the authors. For some assays here: Protein sequences can lack the tags named with them.

Data set [1] addresses T1, Xanthomonas campestris ParB (Xanthomonas campestris) (UniProt Q8P466).
T1 sequence (looked up, limits assumed): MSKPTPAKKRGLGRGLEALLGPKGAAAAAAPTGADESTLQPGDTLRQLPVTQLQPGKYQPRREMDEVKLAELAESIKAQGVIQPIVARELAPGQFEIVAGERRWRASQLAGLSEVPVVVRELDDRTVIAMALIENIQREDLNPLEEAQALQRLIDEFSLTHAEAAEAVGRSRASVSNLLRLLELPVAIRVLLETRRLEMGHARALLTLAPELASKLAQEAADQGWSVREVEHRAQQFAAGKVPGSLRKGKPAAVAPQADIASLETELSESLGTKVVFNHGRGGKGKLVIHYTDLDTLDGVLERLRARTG
The experiment in a line: BLI. The settings on record: 0.01 mM CTP (enhanced), Mg2+; BLI at 22 C: 100 mM Tris-HCl pH 8.0, 100 mM NaCl, 1 mM MgCl2, 0.005% Tween 20; 1 uM protein dimer; recombinant protein; protein details: N-terminal His6-MBP; label: biotin at both 5' ends.

In data set [2] the test system is Staphylococcus ParB (Staphylococcus). The experiment in a line: BLI. Particulars: 1 mM CTP (enhanced), Mg2+; BLI at 22 C: 100 mM Tris-HCl pH 8.0, 100 mM NaCl, 1 mM MgCl2, 0.005% Tween 20; 1 uM protein dimer; recombinant protein; protein details: N-terminal His6-MBP; label: biotin at both 5' ends.

For the sequence “CGCCAGGGTTTTCCCAGTCACGACGTTGTAAAACGACGGCCAGTGAATTCGAGCTCGGTACCCGCAGGAGGACGTAGGGTAGGGGGATGTTTCACGTGAAACAGGGGATCCTCTAGAGTCGACCTGCAGGCATGCAAGCTTGGCGTAATCATGGTCATAGCTGTTTCCT (double strand) [169 bp parS closed DNA]”, the binding result in data set [1] and in data set [2] was “binds” in each case.

These data come from publication PMC7053999, “ParB spreading on DNA requires cytidine triphosphate in vitro” (eLife, 2020).
